Experimental data: PubChem BioAssay AID624099 (ICCB-Longwood, 2012)

Aim: 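Human genes that papillomavirus E2 requires to repress the HPV18 LCR promoter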 (primary screen)
System: human C33A cervical carcinoma cells (HPV-negative) stably expressing BPV1 E2 and an HPV18 LCR luciferase reporter
Knock-down reagent: siRNA pool against human genes, 40 nM
Time to read-out: 72 h
Read-out: 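Per-well luciferase luminescence, z-scored on each plate against the plate mean and SD with control wells left out, then averaged across three replicate plates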
Reading the numbers: mean z-score and z-score: higher = stronger reporter signal, weaker E2 silencing
Call rule: 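Mean z ≥ 2 together with z ≥ 2 in two or more of the three replicates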
The deposit covers about 21,000 reagents; shown is a part drawn at random. In the full data, 497 (2.4%) were called active. 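Higher z means weaker E2 silencing; only reporter increases were scored, and knock-downs that hurt cell survival may mask genuine repressor factors.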 A number with no mark means an inactive call. No sequences are given here.

Gene,PubChem SID,mean z-score,"z-score, replicate A","z-score, replicate B","z-score, replicate C"
LOC389834 (ankyrin repeat domain 57 pseudogene),SID134329226,2.26 (active),2.21,2.8,1.77
"RAB6A (RAB6A, member RAS oncogene family)",SID134313816,-1.02,-1.14,-1.07,-0.85
RBM18 (RNA binding motif protein 18),SID134319134,0.17,-0.18,-0.02,0.71
CEP126 (centrosomal protein 126),SID134328230,0.71,1.06,0.43,0.64
LOC400662 (retired record),SID134328858,-0.45,-0.39,-0.44,-0.52
ADAM20 (ADAM metallopeptidase domain 20),SID134310504,-0.83,-0.47,-1.13,-0.91
SPATA16 (spermatogenesis associated 16),SID134318864,0.66,0.6,0.53,0.86
NPIPA1 (nuclear pore complex interacting protein family member A1),SID134323513,0.08,-0.21,0.16,0.29
CLPS (colipase),SID134313150,-1.51,-1.71,-1.28,-1.56
VPS11 (VPS11 core subunit of CORVET and HOPS complexes),SID134312145,-0.53,-0.86,-0.42,-0.33
BUB1 (BUB1 mitotic checkpoint serine/threonine kinase),SID56478774,-0.44,-0.12,-0.83,-0.37
ASPN (asporin),SID134325055,-0.19,-0.11,-0.28,-0.17
LINC03040 (long independently transcribed non-coding RNA 3040),SID134320736,-0.56,-0.81,0.08,-0.95
MBOAT1 (membrane bound glycerophospholipid O-acyltransferase 1),SID134314877,-0.47,-0.39,-0.41,-0.62
IRGC (immunity related GTPase cinema),SID134324664,0.17,0.05,0.19,0.27
RPL7A (ribosomal protein L7a),SID134315492,-1.94,-1.94,-1.89,-1.98
SAYSD1 (SAYSVFN motif domain containing 1),SID134324225,-1.5,-1.44,-1.68,-1.39
OR5K4 (olfactory receptor family 5 subfamily K member 4),SID134329949,-1.21,-1.04,-1.02,-1.57
"METTL5 (methyltransferase 5, N6-adenosine)",SID134324346,-0.33,-0.6,-0.62,0.23
CCN1 (cellular communication network factor 1),SID134310345,0.5,-0.48,0.95,1.03
LRFN3,SID134318509,-0.1,-0.62,0.01,0.32
"MUC17 (mucin 17, cell surface associated)",SID134326355,-0.6,-0.63,-0.66,-0.52
"MUC17 (mucin 17, cell surface associated)",SID134327888,0.44,0.61,0.18,0.54
CSNK1D (casein kinase 1 delta),SID56478658,-1.03,-0.56,-1.41,-1.11
NHLRC1 (NHL repeat containing E3 ubiquitin protein ligase 1),SID134326885,-0.11,0.42,-0.34,-0.4
CAV1 (caveolin 1),SID134309914,-0.06,-0.06,-0.16,0.03
CAV1 (caveolin 1),SID134327911,-1.14,-0.55,-1.55,-1.33
EGR3 (early growth response 3),SID134311852,-0.43,-0.28,-0.74,-0.28
LAMP2 (lysosome associated membrane protein 2),SID134316036,1.62,1.67,1.6,1.59
RBP7 (retinol binding protein 7),SID134313513,0.27,0.13,0.59,0.09
ELAVL2 (ELAV like RNA binding protein 2),SID134323564,-1.23,-0.78,-1.52,-1.4
LOC389099 (retired record),SID134327310,-0.52,-0.31,-0.64,-0.61
DGKQ (diacylglycerol kinase theta),SID56478983,-1.14,-1.23,-1.14,-1.06
LOC122423 (retired record),SID134325270,-1.43,-1.59,-1.55,-1.17
SRP19 (signal recognition particle 19),SID134323498,0.62,0.74,0.54,0.57
LAIR2 (leukocyte associated immunoglobulin like receptor 2),SID134315666,-0.69,-0.62,-0.74,-0.7
LOC399786 (retired record),SID134328210,0.26,0.48,0.07,0.22
"SUPT3H (SPT3 homolog, SAGA and STAGA complex component)",SID134323329,-0.24,-0.43,-0.44,0.15
DIRAS1 (DIRAS family GTPase 1),SID134313825,1.43,1.2,1.57,1.52
ALMS1P1 (ALMS1 pseudogene 1),SID134320277,0.28,0.09,0.13,0.62
NXPH4 (neurexophilin 4),SID134326699,-0.35,-0.37,-0.53,-0.14
RAB11FIP2 (RAB11 family interacting protein 2),SID134324170,-0.29,-0.08,-0.61,-0.17
ZSCAN21 (zinc finger and SCAN domain containing 21),SID134324906,1.28,1.17,1.51,1.16
TSPAN10 (tetraspanin 10),SID134322434,-0.36,-0.25,-0.6,-0.22
EIF1 (eukaryotic translation initiation factor 1),SID134319825,0.63,0.6,0.69,0.61
KRTAP1-1 (keratin associated protein 1-1),SID134317840,-0.15,-0.69,0.31,-0.06
USP30 (ubiquitin specific peptidase 30),SID134324887,0.19,0.26,0.18,0.14
PTMS (parathymosin),SID134323147,-0.54,-0.66,-0.39,-0.57
EFR3B (EFR3 homolog B),SID134325465,1.51,1.17,1.74,1.62
BFSP2 (beaded filament structural protein 2),SID134315806,-0.95,-0.81,-1.01,-1.03
SLC12A8,SID134312437,-1.08,-1.18,-0.93,-1.13
LOC389178 (retired record),SID134327395,-0.99,-0.73,-1.37,-0.87
MYRF (myelin regulatory factor),SID134324343,-0.8,-0.61,-0.89,-0.9
PRDM11 (PR/SET domain 11),SID134324362,-0.06,0.4,-0.15,-0.43
FUCA1 (alpha-L-fucosidase 1),SID134313860,-0.44,-0.59,-0.47,-0.26
OR3A4P (olfactory receptor family 3 subfamily A member 4 pseudogene),SID134329913,2.73 (active),2.67,3,2.51
CPA3 (carboxypeptidase A3),SID134311244,0.2,0.04,0.28,0.27
CCDC54 (coiled-coil domain containing 54),SID134322470,-1.49,-1.19,-1.32,-1.97
LOC134541 (retired record),SID134326036,-0.3,-0.39,-0.17,-0.33
DKK3 (dickkopf Wnt signaling pathway inhibitor 3),SID134322215,0.01,0.14,0.22,-0.34
EGR2 (early growth response 2),SID134311851,0.17,0.07,0.29,0.15
COPE (coat protein complex I subunit epsilon),SID134321557,1.37,1.07,1.27,1.79
THAP7 (THAP domain containing 7),SID134310098,-0.83,-1.13,-0.71,-0.64
ZNF556 (zinc finger protein 556),SID134318672,-0.38,-0.45,-0.35,-0.34
SUV39H1 (SUV39H1 histone lysine methyltransferase),SID134314335,1.46,0.95,1.59,1.83
COL4A2 (collagen type IV alpha 2 chain),SID134309987,0.46,0.56,0.56,0.26
FCGBP (Fc gamma binding protein),SID134311918,0.89,1.03,0.91,0.73
MCOLN1 (mucolipin TRP cation channel 1),SID134311699,0.28,0.04,0.2,0.6
TRAT1 (T cell receptor associated transmembrane adaptor 1),SID56479295,-2.36,-2.08,-2.44,-2.56
ADAM12 (ADAM metallopeptidase domain 12),SID134310751,0.97,0.83,0.91,1.17
LOC390613 (retired record),SID134328580,0.63,0.73,0.24,0.92
LOC388160 (retired record),SID134328622,0.34,0.61,0,0.42
TMEM106A (transmembrane protein 106A),SID134320381,-0.81,-0.76,-1.03,-0.64

A few values from the entries so far:
Under “z-score, replicate B”, NXPH4 (neurexophilin 4) [SID134326699] has -0.53
ASPN (asporin) [SID134325055], mean z-score: -0.19
Entry for CSNK1D (casein kinase 1 delta) [SID56478658] under “z-score, replicate A”: -0.56
Under “z-score, replicate C”, SRP19 (signal recognition particle 19) [SID134323498] is entered as 0.57
Entry of LINC03040 (long independently transcribed non-coding RNA 3040) [SID134320736] under “z-score, replicate A”: -0.81
Result of ADAM20 (ADAM metallopeptidase domain 20) [SID134310504] under “z-score, replicate B”: -1.13
